# According to publication PMC11992040:
# pKd: −log10 of the molar value. “And” between values parts separate entries of the source, which are not always exact repeats. Equal values may be shown once.
# Target: Sm-gp41 (PM): soluble SARS-CoV-2 spike trimer with HIV gp41 molecular clamp, paucimannose glycoform (SARS-CoV-2 | HIV)
# Assay: SPR; Biacore T200; spike trimer (10 µg/mL) captured on anti-RBD VHH 11-human IgG1 Fc amine-coupled to a CM-5 chip; hACE2 flowed over, single cycle kinetics, three concentrations, 5-fold dilution from 200 nM; 25 °C; PBS, 0.05% Tween 20, 3.4 mM EDTA; 1:1 binding model; values of single injection cycles (n = 3)
substance,measurement,value
monomeric human ACE2 (from UniProt Q9BYF1 18-805) (receptor),pKd,7.28 and 7.26
